Compound potency records, mixed from different reports. Data source: NIAID ChemDB in PubChem.

Shared fields: tests on isolated targets; organism: HIV-1; protein: Reverse transcriptase; endpoint: IC50

Lines come from different laboratories, so protocols vary. An empty or dashed field is not shown. ICn: concentration for n% inhibition.

smiles | changes | read by | strain | result
CC(C)=CCC[C@@H](C)C1=CC[C@@]2(C)C3CC[C@H]4C(C)(C)[C@@H](O)CC[C@@]45C[C@@]35CC[C@]12C |  | nucleotide incorporation |  | 4.2 µM
Cc1cn([C@H]2CC[C@@H](COP([O-])(=S)OP(=O)(O)C(F)(F)P(O)(O)=S)O2)c(=O)[nH]c1=O |  | fluorescence |  | >0.5 µM
CC(C)(C)OC(=O)N1CCC(NC(=O)c2cc(O)c(O)c(O)c2)CC1 |  | ELISA / nucleotide incorporation | BH10 | >340.5 µM
Cc1cn([C@H]2C[C@H](F)[C@@H](COP([O-])(=S)OP(=O)(O)C(F)(F)P(=O)(O)O)O2)c(=O)[nH]c1=O |  | fluorescence |  | >10 µM
COc1ccc(OC)c2c(=O)c(O)c[nH]c12 |  | RT activity / nucleotide incorporation / radiometric |  | 4.03 µM
COc1ccc2c(c1)N(C(=O)OC(C)C)[C@@H](CSC)C(=S)N2 | RT-G190E | scintillation proximity / radiometric |  | >29 µM
Cc1cn([C@H]2C[C@H](N)[C@@H](COP([O-])(=S)OP(=O)(O)C(F)(F)P(=O)(O)O)O2)c(=O)[nH]c1=O |  | fluorescence |  | >0.5 µM
C[C@H](CNC(=S)Nc1ccc(Cl)cn1)c1ccccc1 |  |  |  | 1.39 µM
Cc1c(C(=O)N(C)Cc2cccnc2)[nH]c(C(N)=O)c1S(=O)(=O)c1ccccc1 | Y181C | RT activity / nucleotide incorporation / luminescence | NL4-3 | 5.5 µM
CC1(C)[C@@H](O)CC[C@]2(C)C3=C(CC[C@@H]12)[C@@]1(C)CC[C@@]2(C)CC[C@@](C)(C(=O)O)C[C@H]2[C@]1(C)CC3 |  | nucleotide incorporation |  | 5.3 µM
O=C(/C=C/c1ncc(-c2ccccc2)cn1)Nc1cc(-c2ccc3c(c2)CCCC3)[nH]n1 | Y181C | RT activity / nucleotide incorporation / luminescence | NL4-3 | 0.26 µM
Nc1nc(Cl)c2ncn([C@H]3C=C[C@@H](COP(=O)(O)OP(=O)(O)OP(=O)(O)O)C3)c2n1 |  | fluorescence |  | >10 µM
O=C1c2ccccc2C2(c3ccccc3)SCCN12 | RT-K103N | ELISA | IIIB | 88 µM
C[C@@H](NC(=S)Nc1ccc(Cl)cn1)c1cccc2ccccc12 |  |  |  | 0.58 µM
COc1cccc(C(=O)N2CCC(NC(=O)c3cc(O)c(O)c(O)c3)CC2)c1 |  | ELISA / nucleotide incorporation | BH10 | 186.3 µM
Nc1nc(Cl)c2ncn([C@H]3C=C[C@@H](COP([O-])(=S)OP(=O)(O)C(F)(F)P(=O)(O)O)C3)c2n1 |  | fluorescence |  | >10 µM
Cc1cc(C)c2nc(NC(=S)NC[C@H](C)c3ccccc3)sc2c1 |  |  |  | 38.75 µM
O=C(Nc1cc(-c2ccc3c(c2)CCCC3)[nH]n1)c1ccc(-c2ccncc2)s1 | K103N | RT activity / nucleotide incorporation / luminescence | NL4-3 | 0.22 µM
C[C@H](NC(=S)Nc1ccccn1)c1cccc2ccccc12 |  |  |  | >100 µM
CN(C)S(=O)(=O)N1CCC(NC(=O)c2cc(O)c(O)c(O)c2)CC1 |  | ELISA / nucleotide incorporation | BH10 | >333.9 µM
C=C(C)[C@@H]1CC[C@@]2(C)[C@H]1[C@H]1CC[C@@H]3[C@@]4(C)CC[C@H](O)C(C)(C)[C@@H]4CC[C@@]3(C)[C@]1(C)C[C@@H]2O |  | nucleotide incorporation |  | 5.4 µM
CCOc1ccc(N2CC(O)Cn3c2nc2c3c(=O)n(CC(N)=O)c(=O)n2C)cc1 |  | nucleotide incorporation / absorbance |  | >100 µM
Cc1cc(C)cc([C@]23SCCN2C(=O)c2ccccc23)c1 | RT-Y181C | ELISA | IIIB | 5.2 µM
Cc1cccc(S(=O)(=O)N2CCN(C(=O)c3cc(O)c(O)c(O)c3)CC2)c1 |  | ELISA / nucleotide incorporation | BH10 | >50 µM
O=C(Nc1nnc(-c2ccc3c(c2)CCCC3)o1)C1=COCCO1 | K103N | RT activity / nucleotide incorporation / luminescence | NL4-3 | 2.5 µM
C[C@@H](CNC(=S)Nc1ccc(Cl)cn1)c1ccccc1 |  |  |  | 0.1 µM
Cc1cc(C)c(S(=O)(=O)N2CCC(NC(=O)c3cc(O)c(O)c(O)c3)CC2)c(C)c1 |  | ELISA / nucleotide incorporation | BH10 | >276.2 µM
C[C@H](CNC(=S)Nc1ccc(Cl)cn1)C1CCCCC1 |  |  |  | >100 µM
CC(C)(C)[Si](C)(C)OC[C@H]1O[C@@H](n2cnc3c(N)ncnc32)[C@H](O[Si](C)(C)C(C)(C)C)C12OS(=O)(=O)C=C2N |  | ELISA |  | <16 µM
Cc1cc(S(N)(=O)=O)ccc1NC(=O)COc1ccc(Cl)cc1C(=O)c1cc(Cl)cc(C#N)c1 | RT-V108I Y181C | fluorescence |  | 0.0048 µM
C[C@@H](NC(=S)Nc1ccc(Br)cn1)c1cccc2ccccc12 |  |  |  | 0.67 µM

The first 2 rows once more:

smiles	changes	read by	strain	result
CC(C)=CCC[C@@H](C)C1=CC[C@@]2(C)C3CC[C@H]4C(C)(C)[C@@H](O)CC[C@@]45C[C@@]35CC[C@]12C		nucleotide incorporation		4.2 µM
Cc1cn([C@H]2CC[C@@H](COP([O-])(=S)OP(=O)(O)C(F)(F)P(O)(O)=S)O2)c(=O)[nH]c1=O		fluorescence		>0.5 µM